# Measurements published in the supplement of paper PMC12613149.
# Columns and labels:
# [1] = reversed-phase LC retention time (C18, 15 min MeOH gradient); higher = more hydrophobic / later elution; details: ionization mode: ESI+; ion species: [M+H]+
# Method: (§1)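 Reference mixture of environmental contaminants analysed by RP-LC (BEH C18, 50 °C; ESI+ with water/MeOH plus formic acid and ammonium formate, ESI- with ammonium bicarbonate) coupled to a timsTOF Pro 2 with trapped ion mobility in nitrogen (ramp/accumulation 100 ms). CCS was calibrated with Agilent tune mix (CCS compendium) and averaged over five injections at 0.5-500 ng/mL. The table reports the lowest-CCS (putative monomer) peak; retention times are on the same gradient.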
# [2] = collision cross section (TIMS, N2 drift gas) of the primary ion; higher = larger gas-phase ion size; details: ionization mode: ESI+; ion species: [M+H]+
# Method: as §1
structure (smiles),measurement,setting,value
"CC(C)(C)c1ccc(OP(=O)(Oc2ccc(C(C)(C)C)cc2C(C)(C)C)Oc2ccc(C(C)(C)C)cc2C(C)(C)C)c(C(C)(C)C)c1 [Tris(2,4-di-tert-butylphenyl)phosphate]",reversed-phase LC retention time,[1],21 min
same,collision cross section,[2],277.43 Å²
